Compound potency records, mixed from different reports. Data source: NIAID ChemDB in PubChem.

Shared fields: growth or infection tests

Zones are inhibition diameters on agar.

smiles,measure,dose,read by,strain,cell line,changes,species,value
C[C@H](Cc1ccc(O)c(O)c1)[C@@H](C)Cc1ccc(O)c(O)c1,MIC80,-,broth dilution,CCC 115-2000,-,-,Candida glabrata,250 µg/mL
CC[C@H]1OC(=O)[C@H](C)[C@@H](O[C@H]2C[C@@](C)(OC)[C@@H](O)[C@H](C)O2)[C@H](C)[C@@H](O[C@@H]2O[C@H](C)C[C@H](N(C)C)[C@H]2O)[C@](C)(OC)C[C@@H](C)C(=O)[C@H](C)[C@@H](O)[C@]1(C)O,MIC,-,broth dilution,V29,-,-,Mycobacterium massiliense,0.125 µg/mL
CC(=O)N[C@H]1[C@@H](O[C@@H]2O[C@H](C[C@@H](O)[C@H]3O[C@@H](n4ccc(=O)[nH]c4=O)[C@H](O)[C@@H]3O)[C@H](O)[C@H](O)[C@H]2NC(=O)/C=C/CC(C)C)O[C@H](CO)[C@@H](O)[C@@H]1O,inhibition,1 µg/mL,-,-,RK-13,-,Encephalitozoon intestinalis,82%
Nc1ccn([C@@H]2C[C@H](CO)[C@@H](O)[C@H]2O)c(=O)n1,EC50,-,cytopathic effect,-,HeLa,-,Vesicular stomatitis virus,2 µg/mL
Nc1ccn(C[C@@H](CO)OCP(=O)(O)O)c(=O)n1,EC50,-,cytopathic effect,TAK (TYPE 41),-,-,Adenovirus,3 µg/mL
CC(C)(CO)C(=O)SCCOP(=O)(NCc1ccccc1)OC[C@H]1O[C@@H](n2cnc3c(=O)[nH]c(N)nc32)[C@](C)(O)[C@@H]1O,fold resistance,-,replicon,GT1a,Replicon cells,K24E,Hepatitis C virus,1.6
O=c1cnn([C@@H]2O[C@H](CO)[C@@H](O)[C@H]2O)c(=O)[nH]1,EC50,-,cytopathic effect / visual reading,NEW YORK,VERO,-,West Nile virus,1.5 µg/mL
C#CC[C@@H](C(=O)N[C@H](/C=C/C(=O)OCC)C[C@@H]1CCNC1=O)n1cccc(NC(=O)c2cc(C)on2)c1=O,inhibition,0.175 µM,cytopathic effect / XTT,Serotype 29,H1-HELA,-,Rhinovirus,90%
Cc1ccc(C(=O)Nc2ccc(S(=O)(=O)O)c3cc(S(=O)(=O)O)cc(S(=O)(=O)O)c23)cc1NC(=O)c1cccc(NC(=O)Nc2cccc(C(=O)Nc3cc(C(=O)Nc4ccc(S(=O)(=O)O)c5cc(S(=O)(=O)O)cc(S(=O)(=O)O)c45)ccc3C)c2)c1,EC50,-,cytopathic effect / visual reading,Uganda,VERO,-,West Nile virus,>80 µg/mL
Nc1ncnc2c1ncn2C[C@@H](CO)OCP(=O)(O)O,EC90,-,virus yield,adenoid 75 (TYPE 5),-,-,Adenovirus,1 µg/mL
CC(=O)OC[C@H]1O[C@@H](n2ncc(=O)[nH]c2=O)[C@H](OC(C)=O)[C@@H]1OC(C)=O,EC50,-,cytopathic effect,NEW YORK,VERO,-,West Nile virus,1.3 µg/mL
COc1cc2oc(=O)ccc2cc1CC(O)C(C)(C)O,zone,250 µg/disc,agar diffusion,ESBL-3967,-,-,Klebsiella pneumoniae,9 mm
O=c1cnn([C@@H]2O[C@H](CO)[C@@H](O)[C@H]2O)c(=O)[nH]1,EC50,-,virus yield,TYPE 4 (YUNH),VERO,-,Dengue virus,<0.3 µg/mL
CCOC(=O)Nc1cc2oc(=O)c(-c3ccccc3)nc2c(N)n1,inhibition,1 µg/mL,-,-,RK-13,-,Encephalitozoon intestinalis,37.2%
NC(=O)c1[nH]nc([C@@H]2O[C@H](CO)[C@@H](O)[C@H]2O)c1O,EC90,-,virus yield,NEW YORK,MA-104,-,West Nile virus,0.3 µg/mL
Nc1ccnc2c1ncn2[C@H]1C=C[C@@H](OCP(=O)(O)O)O1,EC50,-,cytopathic effect,WT 300 (TYPE 5),-,-,Adenovirus,>32 µg/mL
COc1ccc2cc3[n+](cc2c1OC)CCc1cc2c(cc1-3)OCO2,inhibition,10 µg/mL,-,-,RK-13,-,Encephalitozoon intestinalis,56.4%
CN(C)c1cc(NC(=O)CNC(C)(C)C)c(O)c2c1C[C@H]1C[C@H]3[C@H](N(C)C)C(=O)C(C(N)=O)=C(O)[C@@]3(O)C(=O)C1=C2O,MIC,-,broth dilution,x48,-,-,Mycobacterium abscessus,0.5 µg/mL
CO[C@H]1/C=C/O[C@@]2(C)Oc3c(C)c(O)c4c(O)c(c(/C=N/N5CCN(C)CC5)c(O)c4c3C2=O)NC(=O)/C(C)=C\C=C\[C@H](C)[C@H](O)[C@@H](C)[C@@H](O)[C@@H](C)[C@H](OC(C)=O)[C@@H]1C,MIC,-,-,ATCC 25923,-,-,Staphylococcus aureus,0.016 µg/mL
CCO/N=C/c1ccc(OCCC2CCN(c3ccc(C)nn3)CC2)cc1,EC50,-,neutral red,FO2-2513 (ICAM-1 receptor group 69),KB,-,Rhinovirus,0.054 µM
CCC(C)n1ncn(-c2ccc(N3CCN(c4ccc(OC[C@H]5CO[C@](Cn6cncn6)(c6ccc(Cl)cc6Cl)O5)cc4)CC3)cc2)c1=O,MIC,-,-,Isogenic isolate 15 Erg11 (4-5X) R467K,-,-,Candida albicans,0.06 µg/mL
O=c1[nH]c(=O)n([C@@H]2O[C@H](CO)[C@@H](O)[C@H]2O)[nH]c1=S,EC50,-,cytopathic effect,Uganda,VERO,-,West Nile virus,78 µg/mL
COC(=O)Nc1cc(N)c2c(c1)NC(=O)C(c1ccccc1)N2,inhibition,0.01 µg/mL,-,-,RK-13,-,Encephalitozoon intestinalis,4.2%
COc1cc(Cc2cnc(N)nc2N)cc(OC)c1OC,MBC,-,-,ATCC 19423,-,-,Mycobacterium ulcerans,>32 µg/mL
CO[C@H]1[C@@H](OC(=O)/C=C/C=C/C=C/C=C/C(=O)O)CC[C@@]2(CO2)[C@@H]1[C@@]1(C)O[C@@H]1CC=C(C)C,inhibition,0.00005 µg/mL,-,-,RK-13,-,Encephalitozoon intestinalis,50.3%
CO[C@H]1/C=C/O[C@@]2(C)Oc3c(C)c(O)c4c(O)c(c5c(c4c3C2=O)NC2(CCN(CC(C)C)CC2)N=5)=NC(=O)/C(C)=C\C=C\[C@H](C)[C@H](O)[C@@H](C)[C@@H](O)[C@@H](C)[C@H](OC(C)=O)[C@@H]1C,MIC,-,-,ATCC 25923,-,-,Staphylococcus aureus,0.0625 µg/mL
CCCSc1ccc2nc(NC(=O)OC)[nH]c2c1,inhibition,1 µg/mL,-,-,RK-13,-,Vittaforma corneae,89.2%
Nc1ccc(S(=O)(=O)c2ccc(N)cc2)cc1,MIC,-,-,Isolate 5143,-,-,Mycobacterium ulcerans,0.5 µg/mL

2 of the rows above, restated:

smiles,measure,dose,read by,strain,cell line,changes,species,value
CCO/N=C/c1ccc(OCCC2CCN(c3ccc(C)nn3)CC2)cc1,EC50,-,neutral red,FO2-2513 (ICAM-1 receptor group 69),KB,-,Rhinovirus,0.054 µM
CO[C@H]1/C=C/O[C@@]2(C)Oc3c(C)c(O)c4c(O)c(c(/C=N/N5CCN(C)CC5)c(O)c4c3C2=O)NC(=O)/C(C)=C\C=C\[C@H](C)[C@H](O)[C@@H](C)[C@@H](O)[C@@H](C)[C@H](OC(C)=O)[C@@H]1C,MIC,-,-,ATCC 25923,-,-,Staphylococcus aureus,0.016 µg/mL

Fold resistance has wild type as its base. ECn: concentration that inhibits the pathogen or its effect by n%. A number after MIC or MFC names an inhibition level or a share of isolates. Percent inhibition refers to the dose given; in toxicity tests it is the harm to the cells. An empty or dashed field is not shown. Lines come from different laboratories, so protocols vary.